# Test results as given in paper PMC11904993, “Humanized Candida and NanoBiT Assays Expedite Discovery of Bdf1 Bromodomain Inhibitors With Antifungal Potential” (Advanced Science, 2025).
# Chains of the proteins cited; added tags and fusions are not shown. Residues count along the entry.
# UniProt Q6FWV7, 100-228 limits assumed: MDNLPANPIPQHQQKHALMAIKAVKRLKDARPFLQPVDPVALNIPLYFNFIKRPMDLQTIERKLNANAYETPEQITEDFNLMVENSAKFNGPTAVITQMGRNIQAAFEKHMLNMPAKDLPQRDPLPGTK
# UniProt Q6FWV7, 269-391 limits assumed: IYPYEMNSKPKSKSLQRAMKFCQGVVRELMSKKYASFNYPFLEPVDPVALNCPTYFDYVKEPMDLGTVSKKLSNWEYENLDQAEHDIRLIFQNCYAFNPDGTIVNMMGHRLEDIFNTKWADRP
# Molecular target: CgBdf1 BD1 (Candida glabrata, UniProt Q6FWV7)
# Test: HTRF assay, inhibition of H4ac4 peptide binding
# Design: species or system C. glabrata
# Conditions: read-out: IC50 CgBdf1 BD1; Table S3; estimate, preliminary single-replicate HTRF assay
row,Structure (SMILES),IC50 [µM]
1,COC(=O)c1ccccc1Nc1c(-c2ccc(O)cc2)nc2cnccn12,> 20
2,CCC(=O)Nc1ccc(CCc2nc3ccc(C(=O)NCCC4=CCCCC4)cc3[nH]2)cc1,> 20
3,COCCN1C(=O)c2ccccc2C(C(=O)Nc2cccc(NC(C)=O)c2)C12CCCCC2 (stereo not drawn),19

# Molecular target: CgBdf1 BD2 (Candida glabrata, UniProt Q6FWV7)
# Test: not given
# Conditions: read-out: IC50 CgBdf1 BD2; Table S3; estimate, preliminary single-replicate HTRF assay
row,Structure (SMILES),IC50 [µM]
1,COC(=O)c1ccccc1Nc1c(-c2ccc(O)cc2)nc2cnccn12,> 20
2,CCC(=O)Nc1ccc(CCc2nc3ccc(C(=O)NCCC4=CCCCC4)cc3[nH]2)cc1,> 20
3,COCCN1C(=O)c2ccccc2C(C(=O)Nc2cccc(NC(C)=O)c2)C12CCCCC2 (stereo not drawn),> 20

# Test system: CgBdf1 BD1
# Test: not given
# Conditions: CgBdf1 BD1 WT; normalized peptide array signal
row,Structure (SMILES),"Normalized (0 to 100%), WT, Average [%]"
1,COC(=O)c1ccccc1Nc1c(-c2ccc(O)cc2)nc2cnccn12,2.3
2,CCC(=O)Nc1ccc(CCc2nc3ccc(C(=O)NCCC4=CCCCC4)cc3[nH]2)cc1,7
3,COCCN1C(=O)c2ccccc2C(C(=O)Nc2cccc(NC(C)=O)c2)C12CCCCC2 (stereo not drawn),1.5

# Same assay, conditions: CgBdf1 BD1 WT; peptide array signal, left replicate
row,Structure (SMILES),"Raw data, WT, Left"
1,COC(=O)c1ccccc1Nc1c(-c2ccc(O)cc2)nc2cnccn12,0.006301
2,CCC(=O)Nc1ccc(CCc2nc3ccc(C(=O)NCCC4=CCCCC4)cc3[nH]2)cc1,0.04348
3,COCCN1C(=O)c2ccccc2C(C(=O)Nc2cccc(NC(C)=O)c2)C12CCCCC2 (stereo not drawn),0.004411

# Same assay, conditions: CgBdf1 BD1 WT; peptide array signal, right replicate
row,Structure (SMILES),"Raw data, WT, Rigt"
1,COC(=O)c1ccccc1Nc1c(-c2ccc(O)cc2)nc2cnccn12,0.0397
2,CCC(=O)Nc1ccc(CCc2nc3ccc(C(=O)NCCC4=CCCCC4)cc3[nH]2)cc1,0.1014
3,COCCN1C(=O)c2ccccc2C(C(=O)Nc2cccc(NC(C)=O)c2)C12CCCCC2 (stereo not drawn),0.02552

# Same assay, conditions: CgBdf1 BD1 YF mutant; normalized peptide array signal
row,Structure (SMILES),"Normalized (0 to 100%), YF mutant, Average [%]"
1,COC(=O)c1ccccc1Nc1c(-c2ccc(O)cc2)nc2cnccn12,0.293
2,CCC(=O)Nc1ccc(CCc2nc3ccc(C(=O)NCCC4=CCCCC4)cc3[nH]2)cc1,0.308
3,COCCN1C(=O)c2ccccc2C(C(=O)Nc2cccc(NC(C)=O)c2)C12CCCCC2 (stereo not drawn),0.416

# Same assay, conditions: CgBdf1 BD1 YF mutant; peptide array signal, left replicate
row,Structure (SMILES),"Raw data, YF mutant, Left"
1,COC(=O)c1ccccc1Nc1c(-c2ccc(O)cc2)nc2cnccn12,0.002776
2,CCC(=O)Nc1ccc(CCc2nc3ccc(C(=O)NCCC4=CCCCC4)cc3[nH]2)cc1,0.004318
3,COCCN1C(=O)c2ccccc2C(C(=O)Nc2cccc(NC(C)=O)c2)C12CCCCC2 (stereo not drawn),0.005552

# Same assay, conditions: CgBdf1 BD1 YF mutant; peptide array signal, right replicate
row,Structure (SMILES),"Raw data, YF mutant, Right"
1,COC(=O)c1ccccc1Nc1c(-c2ccc(O)cc2)nc2cnccn12,0.003085
2,CCC(=O)Nc1ccc(CCc2nc3ccc(C(=O)NCCC4=CCCCC4)cc3[nH]2)cc1,0.001851
3,COCCN1C(=O)c2ccccc2C(C(=O)Nc2cccc(NC(C)=O)c2)C12CCCCC2 (stereo not drawn),0.002776

# Test system: CgBdf1 BD2
# Test: not given
# Conditions: CgBdf1 BD2 WT; normalized peptide array signal
row,Structure (SMILES),"Normalized (0 to 100%), WT, Average [%]"
1,COC(=O)c1ccccc1Nc1c(-c2ccc(O)cc2)nc2cnccn12,0.312
2,CCC(=O)Nc1ccc(CCc2nc3ccc(C(=O)NCCC4=CCCCC4)cc3[nH]2)cc1,0.53
3,COCCN1C(=O)c2ccccc2C(C(=O)Nc2cccc(NC(C)=O)c2)C12CCCCC2 (stereo not drawn),0.639

# Same assay, conditions: CgBdf1 BD2 WT; peptide array signal, left replicate
row,Structure (SMILES),"Raw data, WT, Left"
1,COC(=O)c1ccccc1Nc1c(-c2ccc(O)cc2)nc2cnccn12,0
2,CCC(=O)Nc1ccc(CCc2nc3ccc(C(=O)NCCC4=CCCCC4)cc3[nH]2)cc1,0.004367
3,COCCN1C(=O)c2ccccc2C(C(=O)Nc2cccc(NC(C)=O)c2)C12CCCCC2 (stereo not drawn),0.006862

# Same assay, conditions: CgBdf1 BD2 WT; peptide array signal, right replicate
row,Structure (SMILES),"Raw data, WT, Rigt"
1,COC(=O)c1ccccc1Nc1c(-c2ccc(O)cc2)nc2cnccn12,0.006238
2,CCC(=O)Nc1ccc(CCc2nc3ccc(C(=O)NCCC4=CCCCC4)cc3[nH]2)cc1,0.006238
3,COCCN1C(=O)c2ccccc2C(C(=O)Nc2cccc(NC(C)=O)c2)C12CCCCC2 (stereo not drawn),0.005926

# Same assay, conditions: CgBdf1 BD2 YF mutant; normalized peptide array signal
row,Structure (SMILES),"Normalized (0 to 100%), YF mutant, Average [%]"
1,COC(=O)c1ccccc1Nc1c(-c2ccc(O)cc2)nc2cnccn12,0.675
2,CCC(=O)Nc1ccc(CCc2nc3ccc(C(=O)NCCC4=CCCCC4)cc3[nH]2)cc1,0.752
3,COCCN1C(=O)c2ccccc2C(C(=O)Nc2cccc(NC(C)=O)c2)C12CCCCC2 (stereo not drawn),0.798

# Same assay, conditions: CgBdf1 BD2 YF mutant; peptide array signal, left replicate
row,Structure (SMILES),"Raw data, YF mutant, Left"
1,COC(=O)c1ccccc1Nc1c(-c2ccc(O)cc2)nc2cnccn12,0.009509
2,CCC(=O)Nc1ccc(CCc2nc3ccc(C(=O)NCCC4=CCCCC4)cc3[nH]2)cc1,0.01135
3,COCCN1C(=O)c2ccccc2C(C(=O)Nc2cccc(NC(C)=O)c2)C12CCCCC2 (stereo not drawn),0.01319

# Same assay, conditions: CgBdf1 BD2 YF mutant; peptide array signal, right replicate
row,Structure (SMILES),"Raw data, YF mutant, Right"
1,COC(=O)c1ccccc1Nc1c(-c2ccc(O)cc2)nc2cnccn12,0.003988
2,CCC(=O)Nc1ccc(CCc2nc3ccc(C(=O)NCCC4=CCCCC4)cc3[nH]2)cc1,0.003681
3,COCCN1C(=O)c2ccccc2C(C(=O)Nc2cccc(NC(C)=O)c2)C12CCCCC2 (stereo not drawn),0.002761
